Laboratory results from US7157481B2 (priority 1997, dated 2007).

Tested on: Pyricularia oryzae
Test: Pyricularia Test (Rice)/Induction of resistance
Details: young rice plants sprayed at 750 g/ha; inoculated 5 days after treatment; evaluation 4 days after inoculation; 100% = no infection

| SMILES | Efficacy in % [%] |
| --- | --- |
| Cc1ccc(NC(=O)c2snc(Cl)c2Cl)c(C)c1 | 90 |
| CCN(CC)Cc1ccc(CNC(=O)c2snc(Cl)c2Cl)cc1 [Example 14] | 100 |
| CCC(CC)c1ccc(NC(=O)c2snc(Cl)c2Cl)cc1 | 90 |
| O=C(NCCOS(=O)OCCNC(=O)c1snc(Cl)c1Cl)c1snc(Cl)c1Cl | 90 |
| CCC(C)c1ccc(NC(=O)c2snc(Cl)c2Cl)cc1 (stereo not shown) [Example 16] | 90 |
| CC(C)(C)CSCc1ccc(NC(=O)c2snc(Cl)c2Cl)cc1 | 90 |
| N#Cc1ccccc1NC(=O)c1snc(Cl)c1Cl | 90 |
